Data as given in PubChem BioAssay AID504761 (Drosophila RNAi Screening Center, 2011).

Screen: 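Fly genes whose silencing reduces dengue virus type 2 infection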 (primary screen)
Cell system: D.Mel-2 cells from Drosophila
Knock-down reagent: long dsRNA against Drosophila genes
Treatment: infection with dengue virus type 2; dose and infection time not stated
Detection: 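Cells stained for dengue envelope protein and imaged; percent of infected cells per well on duplicate plates, ranked by infection, with stained nuclei counted for cell number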
Scale: infection score: higher = more virus-infected cells
Call rule: 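Very low infection ranking in both replicate wells (chance probability at most 0.065), then a retest showing infection dropped 1.5-fold or more at p below 0.05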
Calls: active = confirmed: knock-down lowers infection; inactive = not picked or not confirmed
The deposit covers about 22,000 reagents; below is a random part of those with a known target gene and a result. Over the whole deposit, 116 (0.52%) got an active call. 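Calls depend on retest data that are not deposited; infection was ranked per plate without normalising between plates; the unit of the infection score is not given.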 A number with no mark means an inactive call. Not all columns of the deposit are shown. The record does not give: the amount of reagent, the time to read-out.

What is on record for CG2931 [DRSC12324]?
infection score, replicate 1: 16.7

With Ranbp21 [DRSC19447], what does the deposit list?
infection score, replicate 1: 5.88

How did the screen score CG15909 [DRSC04977]?
infection score, replicate 1: 5.43

With CG11307 [DRSC11648], what does the deposit list?
infection score, replicate 1: 2.04

Which result is listed for CG11307 [DRSC26602]?
infection score, replicate 1: 0.8

Laid out differently: entries from further up.
gene | DRSC id | infection score, replicate 1
CG11307 | DRSC11648 | 2.04
CG11307 | DRSC26602 | 0.8

Additional results follow.
For PheRS-m [DRSC05915], how do the results read?
infection score, replicate 1: 32.6

Which result is listed for PTPMT1 [DRSC14235]?
infection score, replicate 1: 1.39

How did the screen score Cpr66Cb [DRSC10769]?
infection score, replicate 1: 1.34

What is on record for Tmtc3 [DRSC04444]?
infection score, replicate 1: 14.1

Which result is listed for CG12115 [DRSC17811]?
infection score, replicate 1: 10.6

What is on record for CG14195 [DRSC19550]?
infection score, replicate 1: 4.66

What did the screen give for PIG-O [DRSC06123]?
infection score, replicate 1: 10.4

Which result is listed for CG15084 [DRSC06515]?
infection score, replicate 1: 0.68

For CG15084 [DRSC21403], what was measured?
infection score, replicate 1: 2.05

How did the screen score CG15084 [DRSC27128]?
infection score, replicate 1: 3.88
